Measured values reported in article PMC10082729, “First study on in vitro antiviral and virucidal effects of flavonoids against feline infectious peritonitis virus at the early stage of infection” (Veterinary World, 2023).

Test system: FIPV
Test: Cotreatment (virucidal) assay, IPMA
Type: cell-based, feline infectious peritonitis virus

COc1ccc(-c2cc(=O)c3c(O)cc(O)c(-c4cc(-c5cc(=O)c6c(O)cc(O)cc6o5)ccc4OC)c3o2)cc1 [Isoginkgetin]
EC50 of cotreatment greater than EC50 of post-viral entry experiment: approximately 10 fold
SI (cotreatment) (cotreatment, CC50/EC50): 4.90
